The source of these data is the supplement of paper PMC9931576.

Changes are numbered by the printed parent chain. Human monoclonal antibodies against the spike receptor-binding domain (heavy:light variable regions). IC50 against pseudoviruses bearing the spike of naturally observed variants; lower = stronger; >10 µg/ml means not reached at the top dose. No active / inactive call. The stated detection limit is 0.0005 µg/ml; values near or below 0.001 µg/ml lie at the floor of the assay.

Common to all, as to assay: pseudovirus neutralization IC50; higher = weaker neutralization
Assay [1] has as its target SARS-CoV-2 Omicron BA.1 spike pseudovirus. Here is the method:
(§1)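 Single-round VSV luciferase pseudovirus mixed with antibody dilutions for 1 h and put on Huh-7 cells for about a day; IC50 from the dose curve.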

Assay [2] has as its target SARS-CoV-2 Omicron BA.2 spike pseudovirus. Here is the method: as §1
Assay [3] has as its target SARS-CoV-2 Omicron BA.2.75 spike pseudovirus. Here is the method: as §1
Assay [4] deals with SARS-CoV-2 Omicron BA.5 spike pseudovirus. As to the method: as §1
For assay [5], the target named is SARS-CoV-2 Omicron BQ.1.1 spike pseudovirus. Here is the method:
as §1

For assay [6], the target named is SARS-CoV-2 Omicron XBB spike pseudovirus. Here is the method:
as §1

Assay [7] deals with SARS-CoV-2 early D614G spike pseudovirus. As to the method:
as §1

B1: BD55-5453 (protein)
chain 1: EVQLVESGGGLVKPGESLRLSCAASGFTFNSYSMYWVRQAPGKGLEWVSCLSSSGTLVFYADSVKGRFTISRDNAQKSLYLQMNSLRAEDTAVYYCARESNRPRGVDFDYWGQGTLVAVSS
chain 2: DIQMTQSPSSLSASVGDRVSITCRASQSIGNYLNWYQQKPGKAPKLLIYAASNLQNGVPSRFSGSGSGTDFTLTISSLQPEDFATYYCQQGYSTPGVTFGPGTKVDIK
B1: the “pseudovirus neutralization IC50” value in assay [1], in assay [2], in assay [3], in assay [4], in assay [5] and in assay [6] was over 10 µg/mL each time. For the same molecule, the “pseudovirus neutralization IC50” value in assay [7] came out at 6.25 µg/mL.

B2: BD55-5468 (protein)
chain 1: EVQLVESGGGLVKPGGSLRLSCAASGFTFSSYTMNWVRQAPGKGLEWVSSISGSSSFIFYADSLKGRFSISRDNAKNSLYLQMSSLRAEDTAIYYCARNYEILTAYSDAEYFQHWGQGTLVTVSS
chain 2: EIVLTQSPATLSLSPGERATLSCRASQSVSSSLAWYQQKPGQAPRLLIYDASNRATGIPPRFSGSGSGTDFTLTISSLEPEDFAVYYCQQRSNWPPYTFGQGTKVEIK
With B2, the “pseudovirus neutralization IC50” value in assay [1], in assay [2], in assay [3], in assay [4], in assay [5] and in assay [6] was over 10 µg/mL throughout. For the same molecule, the “pseudovirus neutralization IC50” value in assay [7] came to 1.43 µg/mL.

B3: BD55-5463 (protein)
chain 1: QVQLVQSGSELKKPGASVKVSCKASGYTFTTYSVKWVRQAPGQGLEWMGWINTNTGNPTYAQGFTGRFVFSLDTSVNTAYLLISSLRAEDTAVYYCARVYCNDYSCYDVDYWGQGTLVTVSS
chain 2: QSVLTQPPSASGTPGQRVTISCSGSISNIGSNFVYWYQQLPGTAPKLLIYRDDHRPSGVPDRISGSKSGTSASLAVSGLRSEDEADYYCAAWDDTVSGRLFGGGTRLTVL
Regarding B3, the “pseudovirus neutralization IC50” value in assay [1], in assay [2], in assay [3], in assay [4], in assay [5] and in assay [6] was over 10 µg/mL each time. Further, the “pseudovirus neutralization IC50” value in assay [7] was 0.0387 µg/mL.

B4: BD55-5449 (protein)
chain 1: QGQLVQSGAEVKKPGASVKVSCKASGYTSNNYAIHWVRQAPGQRLEWMGCINAGSGYTKYSQKFQDRVTITRDTSASTAYMELSSLRSEDTAQYYCARAIIAEAGMATFYHYYGMDVWGQGTTVIVSS
chain 2: SYELTQPPSVSVSPGQTARITCSGDALPKQYAYWYQQKPGQAPALIIYKDSERPSGIPERFSGSSSGTTATLTISGVQAEDEADYYCQSADSSTIYAIFGGGTKLTVL
In the case of B4, the “pseudovirus neutralization IC50” value in assay [1] was 0.0199 µg/mL; in assay [2] it was 0.494 µg/mL; in assay [3], over 10 µg/mL; in assay [4] it was 1.19 µg/mL; in assay [5], over 10 µg/mL; in assay [6], over 10 µg/mL. The “pseudovirus neutralization IC50” value in assay [7] came to 0.00463 µg/mL.

B5: BD55-5467 (protein)
chain 1: EVKLVESGGGLVQPGRSLRLSCSASGFTFDDYTMHWVRQAPGKGLEWVAGINWNSGSIGYADSVKGRFTISRDNAKNSLYLQVNSLRVEDTALYYCAKVVSAAAATLDDDAFDIWGQGTMVTVSS
chain 2: SSELTQDPAVSVALGQTVRITCQGDSLRSYYASWYQQKPGQAPVLLIYGKNNRPSGIPDRFSGSSSGNTASLTITGAQAEDEADYYCNSRDTSGNHLRVFGGGTKLTVL
In the case of B5, the “pseudovirus neutralization IC50” value in assay [1], in assay [2], in assay [3], in assay [4], in assay [5] and in assay [6] was over 10 µg/mL each time. Further, the “pseudovirus neutralization IC50” value in assay [7] worked out at 2.34 µg/mL.

B6: BD55-5432 (protein)
chain 1: EVQLAESGGGVGQPGRSLRLSCEASGFRFDEYAMHWVRQAPGKGLEWVSSISWNSGSIGYADSVKGRFIISRDNAKNSLYLEMNSLRSEDTALYFCVRDEGHGSGGSLGCFDYWGRGALVTVSS
chain 2: EIVLTQSPGTLSLSPGQRATLSCRASQGVGRYNLAWYQHKPGQAPRLLIHETSTRATGIPDRFSGSGSGTDFTLTITRLEPEDFAVYYCQQYGTSARTFGQGTKLEIK
For B6, the “pseudovirus neutralization IC50” value in assay [1], in assay [2], in assay [3], in assay [4], in assay [5] and in assay [6] was over 10 µg/mL in each case. For the same molecule, in assay [7], the “pseudovirus neutralization IC50” value came out at 0.0262 µg/mL.

B7: BD55-5450 (protein)
chain 1: QVQLQQWGTGLLKPSETLSLTCGVSGGSLGGYYWTWIRQPPGKGLEWIGEIYHSGSANYNPSLKSRVAISVDTSKNQFSLRLTSVTAADTGVYYCAREEAVAVIDLWGQGALVTVSA
chain 2: QSALTQPASVSGSPGQSITISCTGTSSDIGSHNYVSWYQVHPGKAPKLIIYDVSKRPSGLSHRFSGSKSGNTASLTISGLQTEDEADYYCCSYTSSTSYVLFGGGTQLTVL
Turning to B7, the “pseudovirus neutralization IC50” value in assay [1], in assay [2], in assay [3], in assay [4], in assay [5] and in assay [6] was over 10 µg/mL each time. Moreover, the “pseudovirus neutralization IC50” value in assay [7] was determined as 4.25 µg/mL.

B8: BD55-5425 (protein)
chain 1: EVQLVESGGGLVQPGESLRLSCAASGFSFRTYPMHWVRQAPGKGLEYVSSISSNGGAFYADSVKGRFTISRDNSKNTLYLQMGSLRAEDMAVYYCAREGGDYSVVLDYWGQGTLVTISS
chain 2: DIQMTQSPSSLSASVGDRVTITCRAGQSISRYLNWYQQKPGKAPKLLIYTASSLQSGVPSRFSGSGSGTDFTLTISGLQPEDFATYYCQQSYVTPMYTFGQGTKLEIK
For the molecule B8, the “pseudovirus neutralization IC50” value in assay [1], in assay [2], in assay [3], in assay [4], in assay [5] and in assay [6] was over 10 µg/mL in each case. Also, in assay [7], the “pseudovirus neutralization IC50” value is over 10 µg/mL.

B9: BD55-5456 (protein)
chain 1: EVQLVESGGGWVQPGGSLRLSCEASGFTFTNFALHWVRQAPGSGLEYVSSITSNGGGTFYATSVEGRFTISRDNAKNTLYLQMGSLRHEDMGVYYCARESTITVSTILDYWGQGTRVTVSS
chain 2: B8 chain 2 with G26S, S30V, T50G, G77S, V93I, M96L, Q101P
As for B9, the “pseudovirus neutralization IC50” value in assay [1], in assay [2], in assay [3], in assay [4], in assay [5] and in assay [6] was over 10 µg/mL each time. In assay [7], the “pseudovirus neutralization IC50” value is over 10 µg/mL.

B10: BD55-5431 (protein)
chain 1: QMQLVESGGGVVRPGRSLRLSCAASAFPFSTYAMHWVRQAPGKGLEWVAVISYDGSDIYYADSVKGRFTISRDNSKNTLYLQMSDLGAQDTAVYYCARAGVLRNFDWLLSSGFAFWGQGTLVTVSS
chain 2: DIQMTQSPSSLSASVGDRVTITCQASQDIRNYLNWYQQKPGKAPKLLIYDASNLEPGVPSRFSGRGSGTDFTLTISSLQPEDLATYYCQQYFNLPSFGQGTKLEIK
As to B10, the “pseudovirus neutralization IC50” value in assay [1], in assay [2], in assay [3], in assay [4], in assay [5] and in assay [6] was over 10 µg/mL in each case. The “pseudovirus neutralization IC50” value in assay [7] was 0.197 µg/mL.

B11: BD55-5474 (protein)
chain 1: QLQLQESGPGLVKPSETLSLTCSVSGASIINDHYSWAWVRQPPGKGLEWIGNIYYNGKTYYNPSLKSRVTISGDTPRNRLSLKLSSVTAADTAVYYCARRATGYSGYDIFGNDAFDSWGQGTLVSVSS
chain 2: QSVLTQPPSVSGAPGQRVTISCTGSSSNIGAGYDVHWYQQVPGTAPKLLIYDNNNRPSGVPDRFSGSKSGTSASLAITGLQAEDEADYYCQSYDSSLSGSSVFGTGTKVTVL
In the case of B11, the “pseudovirus neutralization IC50” value in assay [1], in assay [2], in assay [3], in assay [4], in assay [5] and in assay [6] was over 10 µg/mL in each case. Moreover, the “pseudovirus neutralization IC50” value in assay [7] was 0.413 µg/mL.

B12: BD55-5438 (protein)
chain 1: QLQLQESGPGLVKPSETLSLTCSVSGGSISSRSFSWGWIRQPPGKGLEWIGSIYYSGSTSYNPSLRSRITISVETSQNQFSLRLSSVTAADTAVYFCVRHEGVDYYFNYWGQGTLVTVSS
chain 2: DIQMTQSPSTLSASVGDRVTITCRASQSISRWLAWYQQKPGKAPKLLIYMASILESGVPSRFSGSGSGTEFTLTISSLQPDDFATYYCQQYNSDSYSFAQGTKLDIK
For the molecule B12, the “pseudovirus neutralization IC50” value in assay [1], in assay [2], in assay [3], in assay [4], in assay [5] and in assay [6] was over 10 µg/mL throughout. In assay [7], the “pseudovirus neutralization IC50” value amounted to 0.548 µg/mL.
